Results published in patent US5605926A.
Where two headings read alike, the source gives them in different places.

Protein sequences, listed by entry. Tags and fused reporters are not part of them. Residues count along the entry.
UniProt P04584, 514-612 limits assumed: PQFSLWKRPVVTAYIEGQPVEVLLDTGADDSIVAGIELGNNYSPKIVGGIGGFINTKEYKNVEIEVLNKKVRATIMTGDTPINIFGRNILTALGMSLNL

Legend:
[1] = tested on: HIV; test: HIV infection in cell culture, H-9; details: read-out: IC50 [H-9]; HIV-infected H-9 cells; 50% suppression of virus-induced syncytia
[2] = tested on: HIV; test: HIV infection in cell culture, syncytia formation, PBL; details: read-out: IC50 [PBL]; HIV-infected normal human blood lymphocytes; 50% suppression of virus-induced syncytia
[3] = target: HIV-1 protease (Human immunodeficiency virus type 1 group M subtype B, UniProt P04585); test: HIV protease enzyme assay (RP-HPLC), HIV-1
Protocol: (§1) The results of the examples shown below were determined by the HIV test system described in the following literature references [cf. Hansen, J., Billich, S., Schulze, T., Sukrow, S. and Molling, K. (1988), EMBO Journal, Vol. 7, No. 6, pp. 1785-1791]: Purified HIV protease was incubated with synthetic peptide which imitated a cleavage site in the Gag precursor protein and represented an in vivo cleavage site of the HIV protease. The resulting cleavage products of the synthetic peptide were analyzed by means of reverse phase high performance liquid chromatography (RP-HPLC). The IC50 values given relate to the substance concentration which causes a 50% inhibition of the protease activity under the abovementioned test conditions.
(§2) Enzyme assay, HIV-1/HIV-2

[4] = target: HIV-2 protease (Human immunodeficiency virus type 2 subtype A, UniProt P04584); test: HIV protease enzyme assay (RP-HPLC), HIV-2; details: read-out: IC50 (RP-HPLC) HIV-2, purified HIV protease, synthetic Gag cleavage-site peptide
Protocol: as §1, §2

[5] = read-out: IC50 (RP-HPLC) HIV-1, purified HIV protease, synthetic Gag cleavage-site peptide
[6] = read-out: IC50 (RP-HPLC) HIV-1, purified HIV protease, synthetic Gag cleavage-site peptide, tested form: 2HCl

Row | SMILES | IC50 [1] [nM] | IC50 [2] [nM] | IC50 [3, 5] [nM] | also measured
1 | CC(C)[C@H](NC(=O)[C@H](Cc1cccc2ccccc12)CS(=O)(=O)C(C)(C)C)C(=O)N[C@@H](Cc1ccccc1)C(O)CN1CCCC[C@H]1C(F)(F)F (stereo partly shown) | 1100 |  |  | 
2 | NC(=O)C[C@H](NC(=O)c1ccc2ccccc2n1)C(=O)N[C@@H](Cc1ccccc1)C(O)CN1CCC[C@H]1C(F)(F)F (single isomer, unassigned) [37] | 2500 |  |  | 
3 | CC(C)[C@H](NC(=O)[C@H](Cc1ccccc1)NC(=O)[C@H](CO)NC(=O)OC(C)(C)C)C(=O)N[C@@H](Cc1ccccc1)C(O)CN1CCC[C@H]1C(F)(F)F (stereo partly shown) |  | 5000 |  | 
4 | CC(C)C(NCC(O)[C@H](Cc1ccccc1)NC(=O)[C@@H](NC(=O)[C@H](Cc1cccc2ccccc12)CS(=O)(=O)C(C)(C)C)C(C)C)C(F)(F)F (stereo partly shown) |  |  | 10 | 
5 | CC(C)[C@H](NC(=O)[C@H](Cc1cccc2ccccc12)CS(=O)(=O)C(C)(C)C)C(=O)N[C@@H](Cc1ccccc1)C(O)CN1CCC[C@H]1C(F)(F)F (stereo partly shown) | 530 | 140 |  | IC50 [4]: 1 nM
6 | CC[C@H](C)[C@H](NC(=O)[C@H](Cc1cccc2ccccc12)CS(=O)(=O)C(C)(C)C)C(=O)N[C@@H](Cc1ccccc1)C(O)CN1CCC[C@H]1C(F)(F)F (stereo partly shown) |  | 1400 | 10 | 
7 | CC(C)[C@H](N)C(=O)N[C@@H](Cc1ccccc1)C(O)CN1CCC[C@H]1C(F)(F)F (stereo partly shown) |  |  |  | IC50 [3, 6]: 0.1 nM
8 | CC(C)[C@H](NC(=O)[C@@H](N)Cc1ccccc1)C(=O)N[C@@H](Cc1ccccc1)C(O)CN1CCC[C@H]1C(F)(F)F (stereo partly shown) |  |  |  | IC50 [3, 6]: 1 nM
9 | CC(C)[C@H](NC(=O)[C@H](Cc1cccc2ccccc12)CS(=O)(=O)C(C)(C)C)C(=O)N[C@@H](Cc1ccccc1)C(O)CN1CCc2ccccc2C1C(F)(F)F (stereo partly shown) |  |  | 1 | 
10 | CC(C)(C)S(=O)(=O)C[C@@H](Cc1cccc2ccccc12)C(=O)N[C@@H](CC(N)=O)C(=O)N[C@@H](Cc1ccccc1)[C@H](O)C(O)CN1CCC[C@H]1C(F)(F)F (stereo partly shown) |  |  | 10 | 
